In patent publication US20060094071A1, “Method for enriching and tracking pathologic modified prions-proteins(prpsc)” (priority 2002, published 2006):

Biological target: pathologically-altered prion protein (PrP^Sc) from BSE-positive cattle (cattle) (UniProt P10279)

Peptide 7 (Propionyl-DArg-DArg-DAla-DPhe-DPhe-DVal-amide)
Efficiency (relative PrP^Sc binding efficiency, peptide 2 = 100%): 76.5%
